Values quoted from earlier work in patent US8114583B2, “Switch-region: target and method for inhibition of bacterial RNA polymerase” (priority 2005, dated 2012).
Certain results were filed several times, with different values. Only these are listed. The source may hold further records. Values that stand side by side differ, and nothing given here explains why; some may be repeats, others may stem from another dose, organism or construct than stated.

Tests used:
[1] = system: Staphylococcus aureus; conditions: cited from earlier work
[2] = system: Acinetobacter calcoaceticus; conditions: cited from earlier work

## CCC/C(C)=C/C=C(\C)C(=O)c1c(O)cc([C@H](C)CC/C=C/NC(=O)OC)oc1=O [Myx, myxopyronin]
[1]
  MIC: ≤ 1 μg/ml and ≤ 10 μg/ml
[2]
  MIC: ≤ 1 μg/ml and ≤ 10 μg/ml
